Measurements reported in PubChem BioAssay AID504834 (National Center for Advancing Translational Sciences (NCATS), 2011).
Only a part is listed here, and it is no random draw. Records with an inconclusive call do not appear. A call without a number means that no potency is given here. Some salts and complexes are drawn in separate pieces, as the source files them; their charges need not balance. Active and inactive are the calls of the source. The call rests on the fitted dose curve; in most records, active means well fitted inhibition curve with a large enough effect; inconclusive means small, poorly fitted or top-dose-only effect, or another doubt; inactive means no such curve, though single readings can be large or run the other way.

Assay: Primary qHTS for delayed death inhibitors of the malarial parasite plastid, 96 hour incubation
Settings: P. falciparum luciferase reporter growth; series mostly up to 28.7 µM
Potency means the concentration at half of the fitted maximal effect.

Row | SMILES | Potency | activity change, negative = inhibition
1 | O=C(OC1CN2CCC1CC2)C1c2ccccc2C=Cc2ccccc21 (stereo unspecified) | active: 13.1 µM | 
2 | N/C(=N\O)c1c(N)no[n+]1[O-] |  | inactive: 1.36% [at 5.75 µM]
3 | CCOC(=O)C(CC)C1=NC(C)(C)Cc2ccccc21.O=[N+]([O-])c1cc([N+](=O)[O-])c(O)c([N+](=O)[O-])c1 (stereo unspecified) |  | inactive
4 | O=[N+]([O-])c1cc([N+](=O)[O-])c(NCC2CCS(=O)(=O)C2)c([N+](=O)[O-])c1 (stereo unspecified) |  | inactive
5 | O=C(OC1CN2CCC1CC2)c1ccc([N+](=O)[O-])cc1 (stereo unspecified) |  | inactive
6 | COc1ccc2c(c1O)-c1c(O)c(OC)cc3c1[C@H](C2)[N+](C)(C)CC3.O=[N+]([O-])c1cc([N+](=O)[O-])c([O-])c([N+](=O)[O-])c1[O-] |  | inactive
